Source: PMC9270327 (Communications Biology, 2022)
Where two headings read alike, the source gives them in different places.

Protein sequences, listed by entry. Tags and fused reporters are not part of them.
UniProt O15393, whole entry: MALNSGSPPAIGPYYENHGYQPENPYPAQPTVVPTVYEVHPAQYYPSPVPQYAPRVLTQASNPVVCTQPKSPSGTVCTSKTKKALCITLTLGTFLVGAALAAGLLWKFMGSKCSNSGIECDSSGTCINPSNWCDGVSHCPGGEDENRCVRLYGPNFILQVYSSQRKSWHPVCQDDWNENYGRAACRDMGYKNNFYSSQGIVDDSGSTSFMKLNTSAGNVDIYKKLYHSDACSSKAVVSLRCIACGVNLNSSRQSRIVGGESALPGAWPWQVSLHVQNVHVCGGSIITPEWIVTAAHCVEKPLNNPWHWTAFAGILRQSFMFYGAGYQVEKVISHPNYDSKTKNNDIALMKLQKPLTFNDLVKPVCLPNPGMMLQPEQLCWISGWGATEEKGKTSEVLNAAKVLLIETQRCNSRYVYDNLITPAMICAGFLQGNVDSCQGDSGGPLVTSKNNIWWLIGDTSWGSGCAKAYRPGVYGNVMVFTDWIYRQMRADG

Key:
[1] = target: T1, TMPRSS2 (Homo sapiens, UniProt O15393)
[2] = target: T1, TMPRSS2; remark: listed apart in the source

CC(=O)N[C@H](CCCNC(=N)N)C(=O)N[C@@H](CC1CCC1)C(=O)NC(CCCNC(=N)N)C(=O)c1nc2ccccc2s1 (stereo partly shown)
Residual TMPRSS2 activity, Mean (0 nM = 100) ([1]; inhibitor 16.65 nM, 0 min in cell culture medium): 95.5029 | Residual TMPRSS2 activity, Mean (0 nM = 100) ([1]; inhibitor 16.65 nM, 30 min in cell culture medium): 97.2869 | Residual TMPRSS2 activity, Mean (0 nM = 100) ([1]; inhibitor 16.65 nM, 60 min in cell culture medium): 94.2688 | Residual TMPRSS2 activity, Mean (0 nM = 100) ([1]; inhibitor 16.65 nM, 120 min in cell culture medium): 89.8587 | Residual TMPRSS2 activity, Mean (0 nM = 100) ([1]; inhibitor 16.65 nM, 24 h in cell culture medium): 95.046 | Residual TMPRSS2 activity, Mean (0 nM = 100) ([1]; inhibitor 16.65 nM, 10 d in cell culture medium): 97.0792 | Residual TMPRSS2 activity, Mean (0 nM = 100) ([1]; inhibitor 16.65 nM, positive ctrl): 91.2788 | Residual TMPRSS2 activity, Mean (0 nM = 100) ([1]; inhibitor 166.5 nM, 0 min in cell culture medium): 65.4297 | Residual TMPRSS2 activity, Mean (0 nM = 100) ([1]; inhibitor 166.5 nM, 30 min in cell culture medium): 65.6053 | Residual TMPRSS2 activity, Mean (0 nM = 100) ([1]; inhibitor 166.5 nM, 60 min in cell culture medium): 82.5901 | Residual TMPRSS2 activity, Mean (0 nM = 100) ([1]; inhibitor 166.5 nM, 120 min in cell culture medium): 68.4433 | Residual TMPRSS2 activity, Mean (0 nM = 100) ([1]; inhibitor 166.5 nM, 24 h in cell culture medium): 76.4392 | Residual TMPRSS2 activity, Mean (0 nM = 100) ([1]; inhibitor 166.5 nM, 10 d in cell culture medium): 79.9649 | Residual TMPRSS2 activity, Mean (0 nM = 100) ([1]; inhibitor 166.5 nM, positive ctrl): 63.5641 | Residual TMPRSS2 activity, Mean (0 nM = 100) ([1]; inhibitor 1665 nM, 0 min in cell culture medium): 16.8827 | Residual TMPRSS2 activity, Mean (0 nM = 100) ([1]; inhibitor 1665 nM, 30 min in cell culture medium): 10.5937 | Residual TMPRSS2 activity, Mean (0 nM = 100) ([1]; inhibitor 1665 nM, 60 min in cell culture medium): 17.7707 | Residual TMPRSS2 activity, Mean (0 nM = 100) ([1]; inhibitor 1665 nM, 120 min in cell culture medium): 20.9775 | Residual TMPRSS2 activity, Mean (0 nM = 100) ([1]; inhibitor 1665 nM, 24 h in cell culture medium): 23.677 | Residual TMPRSS2 activity, Mean (0 nM = 100) ([1]; inhibitor 1665 nM, 10 d in cell culture medium): 39.3154 | Residual TMPRSS2 activity, Mean (0 nM = 100) ([1]; inhibitor 1665 nM, positive ctrl): 12.9255 | increase in Ki values against TMPRSS2 ([2]; incubation in human serum during the course of 10 days): 1.4–1.8 fold | TMPRSS2 activity, Mean (0 nM = 100) ([2]; inhibitor 0.0167 nM, 0 min in serum): 99.4796 | TMPRSS2 activity, Mean (0 nM = 100) ([2]; inhibitor 0.0167 nM, 30 min in serum): 99.2942 | TMPRSS2 activity, Mean (0 nM = 100) ([2]; inhibitor 0.0167 nM, 60 min in serum): 100.1538 | TMPRSS2 activity, Mean (0 nM = 100) ([2]; inhibitor 0.0167 nM, 120 min in serum): 102.2488 | TMPRSS2 activity, Mean (0 nM = 100) ([2]; inhibitor 0.0167 nM, 24 h in serum): 99.6321 | TMPRSS2 activity, Mean (0 nM = 100) ([2]; inhibitor 0.0167 nM, 10 d in serum): 92.6772 | TMPRSS2 activity, Mean (0 nM = 100) ([2]; inhibitor 0.167 nM, 0 min in serum): 103.7358 | TMPRSS2 activity, Mean (0 nM = 100) ([2]; inhibitor 0.167 nM, 30 min in serum): 103.4579 | TMPRSS2 activity, Mean (0 nM = 100) ([2]; inhibitor 0.167 nM, 60 min in serum): 103.3236 | TMPRSS2 activity, Mean (0 nM = 100) ([2]; inhibitor 0.167 nM, 120 min in serum): 104.1407 | TMPRSS2 activity, Mean (0 nM = 100) ([2]; inhibitor 0.167 nM, 24 h in serum): 99.3926 | TMPRSS2 activity, Mean (0 nM = 100) ([2]; inhibitor 0.167 nM, 10 d in serum): 95.9836 | TMPRSS2 activity, Mean (0 nM = 100) ([2]; inhibitor 1.665 nM, 0 min in serum): 111.0273 | TMPRSS2 activity, Mean (0 nM = 100) ([2]; inhibitor 1.665 nM, 30 min in serum): 103.0953 | TMPRSS2 activity, Mean (0 nM = 100) ([2]; inhibitor 1.665 nM, 60 min in serum): 102.9116 | TMPRSS2 activity, Mean (0 nM = 100) ([2]; inhibitor 1.665 nM, 120 min in serum): 102.1015 | TMPRSS2 activity, Mean (0 nM = 100) ([2]; inhibitor 1.665 nM, 24 h in serum): 99.8014 | TMPRSS2 activity, Mean (0 nM = 100) ([2]; inhibitor 1.665 nM, 10 d in serum): 94.5670 | TMPRSS2 activity, Mean (0 nM = 100) ([2]; inhibitor 16.65 nM, 0 min in serum): 104.2295 | TMPRSS2 activity, Mean (0 nM = 100) ([2]; inhibitor 16.65 nM, 30 min in serum): 102.4089 | TMPRSS2 activity, Mean (0 nM = 100) ([2]; inhibitor 16.65 nM, 60 min in serum): 102.8072 | TMPRSS2 activity, Mean (0 nM = 100) ([2]; inhibitor 16.65 nM, 120 min in serum): 101.8353 | TMPRSS2 activity, Mean (0 nM = 100) ([2]; inhibitor 16.65 nM, 24 h in serum): 98.9897 | TMPRSS2 activity, Mean (0 nM = 100) ([2]; inhibitor 16.65 nM, 10 d in serum): 90.5858 | TMPRSS2 activity, Mean (0 nM = 100) ([2]; inhibitor 166.5 nM, 0 min in serum): 78.1855 | TMPRSS2 activity, Mean (0 nM = 100) ([2]; inhibitor 166.5 nM, 30 min in serum): 83.7337 | TMPRSS2 activity, Mean (0 nM = 100) ([2]; inhibitor 166.5 nM, 60 min in serum): 84.1180 | TMPRSS2 activity, Mean (0 nM = 100) ([2]; inhibitor 166.5 nM, 120 min in serum): 82.0211 | TMPRSS2 activity, Mean (0 nM = 100) ([2]; inhibitor 166.5 nM, 24 h in serum): 82.2052 | TMPRSS2 activity, Mean (0 nM = 100) ([2]; inhibitor 166.5 nM, 10 d in serum): 81.1301 | TMPRSS2 activity, Mean (0 nM = 100) ([2]; inhibitor 1665 nM, 0 min in serum): 25.5237 | TMPRSS2 activity, Mean (0 nM = 100) ([2]; inhibitor 1665 nM, 30 min in serum): 32.2152 | TMPRSS2 activity, Mean (0 nM = 100) ([2]; inhibitor 1665 nM, 60 min in serum): 26.3198 | TMPRSS2 activity, Mean (0 nM = 100) ([2]; inhibitor 1665 nM, 120 min in serum): 32.8991 | TMPRSS2 activity, Mean (0 nM = 100) ([2]; inhibitor 1665 nM, 24 h in serum): 36.4597 | TMPRSS2 activity, Mean (0 nM = 100) ([2]; inhibitor 1665 nM, 10 d in serum): 42.2774
